# According to PubChem BioAssay AID463173 (ICCB-Longwood Screening Facility, Harvard Medical School, 2010):
# Only a part is listed here, and it is no random draw. The source made the active and inactive calls. Cut-off read from the data, not from the text of the source: active = survival mostly below about 52% (no sharp cut-off); inactive = mostly above about 56%.
# Tested on: Wild type
# Assay: growth inhibition of S. aureus wild type versus tarO mutant, primary screen, teichoic acid synthesis inhibitors, RN4220, OD600 (AID 463173)
# Details: S. aureus RN4220 wild type/DeltatarO growth, OD600, 18 h, hits give low values, screened at 18.75 µg/mL (by protocol)
row,Structure (SMILES),survival
1,CCCOc1cccc(C(=O)NCC2(N3CCOCC3)CCCCC2)c1,inactive: 83%
2,CCOc1ccc(C(=O)NCC2(N3CCOCC3)CCCCC2)cc1,inactive: 88%
3,O=C(NCC1(N2CCOCC2)CCCCC1)c1ccccc1Br,inactive: 89%
4,CCCCOc1ccccc1C(=O)NCC1(N2CCOCC2)CCCCC1,inactive: 82%
5,O=C(NCC1(N2CCOCC2)CCCCC1)c1ccc(Cl)cc1,inactive: 113%
6,COc1ccccc1C(=O)NCC1(N2CCOCC2)CCCCC1,inactive: 89%
7,CC(C)(C)c1ccc(C(=O)NCC2(N3CCOCC3)CCCCC2)cc1,inactive: 89%
8,Cc1ccccc1C(=O)NCC1(N(C)C)CCCCC1,inactive: 87%
9,CN(C)C1(CNC(=O)c2ccc(C(C)(C)C)cc2)CCCCC1,inactive: 87%
10,COc1cc(C(=O)NCC2(N3CCOCC3)CCCCC2)cc(OC)c1OC,inactive: 87%
11,O=C(NCC1(N2CCOCC2)CCCCC1)c1ccccc1,inactive: 87%
12,O=C(NCC1(N2CCOCC2)CCCCC1)c1ccc([N+](=O)[O-])cc1,inactive: 87%
13,O=C(NCC1(N2CCOCC2)CCCCC1)c1ccccc1[N+](=O)[O-],inactive: 89%
